Assay results: patent US20260184766A1, “FUSION POLYPEPTIDES AND BINDING PEPTIDES AND METHODS FOR PRODUCING AND USING SAME” (APPLIED BIOMEDICAL SCIENCE INSTITUTE, published 2026)

Target: SARS-CoV-2 (antigen of the ELISA of FIG. 5E)
Assay: ELISA on SARS-CoV-2 antigen (spike or RBD not stated), OD 450

B1: R4C1 chimeric bovine-human IgG1 (ultralong CDR3) (antibody)
VH: QVQLRESGPSLVKPSQTLSLTCTASGFSLSDKAVGWVRQAPGKPLEWLGSIDTAENTGYNPGLKSRLSITKDNSKSQVSLSVSSVTTEDSATYYCATVHQKTRKEKNCPDGYIYSSNTASGYDCGVWICRRVGSAFCSRTGDYTSPSEFDIYEFYVEGWGQGLLVTVSS
VL: QAVLNQPSSVSGSLGQRVSITCSGSSSNVGNGYVSWYQLIPGSAPRTLIYGDTSRASGVPDRFSGSRSGNTATLTISSLQAEDEADYFCASAEDSSSNAVFGSGTTLTVL
notes: also called R4C1 (IgG)
Question: How did the “EC50 (read off the curve)” value turn out when B1 was run?
Answer: Its value is about 0.03 nM.
